Pooled drug test results. Numbers come from NIAID ChemDB, via PubChem.

Common to all: growth or infection tests; agent: Mycobacterium tuberculosis

Inhibition is in % at the dose shown (toxicity tests: loss of growth or viability). Blank or dashed fields: not listed here. A number after MIC or MFC names an inhibition level or a share of isolates. MIC bound comes from a single tested concentration. Two numbers with a dash give a range or band. Conditions beyond the fields shown may differ between rows.

smiles | conditions | method | strain | measure | tested at | result
O=C(Cc1nn(Cc2ccc(Br)cc2F)c(=O)c2ccccc12)N/N=C/c1ccccc1C(F)(F)F | - | - | Multidrug-resistant (MDR) | MIC | - | 0.36 µM
CO[C@H]1/C=C/O[C@@]2(C)Oc3c(C)c(O)c4c(O)c(c(/C=N/N5CCN(C)CC5)c(O)c4c3C2=O)NC(=O)/C(C)=C\C=C\[C@H](C)[C@H](O)[C@@H](C)[C@@H](O)[C@@H](C)[C@H](OC(C)=O)[C@@H]1C | - | broth dilution | ATCC 35338 | MIC | - | >2 µg/mL
CO[C@H]1/C=C/O[C@@]2(C)Oc3c(C)c(O)c4c(=O)c(c5oc6cc(N7CCN(CC(C)C)CC7)cc(=O)c6nc5c4c3=C2O)NC(=O)/C(C)=C\C=C\[C@H](C)[C@H](O)[C@@H](C)[C@@H](O)[C@@H](C)[C@H](OC(C)=O)[C@@H]1C | - | - | - | MIC90 | - | 0.015 µg/mL
COc1ccc(CCNCCNCCc2ccc(Cl)cc2Cl)cc1 | - | - | - | MIC | - | 50 µM
CCN(CC)C(=S)[S][Bi]([S]C(=S)N(CC)CC)[S]C(=S)N(CC)CC | - | - | ETA-R | MIC | - | 1.6 µg/mL
COc1ccc2c(c1)OCC(C1C(=O)c3ccc(OC)cc3OC1c1ccccc1)C2=O | - | - | - | inhibition | 12.5 µg/mL | 0%
ClCC1CSC(c2ccc3c(c2)OCO3)O1 | - | BACTEC | H37Rv | MIC bound | - | >12.5 µg/mL
CC(C)c1ccc2c(c1)CC[C@H]1[C@](C)(CNCCNCCCO)CCC[C@]21C | - | - | - | MIC | - | 25 µM
OC[C@H]1O[C@@H](n2ccc3c(-c4ccco4)nc(F)nc32)C(O)C1O | - | MTT | My 331/88 | MIC | - | >250 µM
CCOC(=O)c1c(-c2ccc(OC)cc2)cc2c3ccccc3ccn12 | - | agar | H37Rv | MIC | - | 16 µM
OC[C@H]1O[C@@H](n2ccc3c(-c4ccsc4)nc(Cl)nc32)C(O)C1O | - | MTT | My 331/88 | MIC | - | 125 µM
O=C(OCc1ccccc1CN1CCCCC1)c1ccc([N+](=O)[O-])cc1Cl | - | BACTEC | H37Rv | inhibition | 12.5 µg/mL | 0%
OCCNc1nc(Nc2ccc(F)cc2)nc2ccccc12 | - | - | H37Rv | MIC100 | - | >32 µg/mL
Nc1nc(-c2ccoc2)c2ccn([C@@H]3O[C@H](CO)C(O)C3O)c2n1 | - | MTT | My 331/88 | MIC | - | >250 µM
Cc1ccc(Nc2cc(N)nc(N)n2)cc1Cl | - | BACTEC | H37Rv | inhibition | 12.5 µg/mL | 91%
O=C(CSc1nnc(-c2ccncc2)n1-c1ccccc1)c1ccccc1 | - | - | H37Rv | MIC | - | >6.25 µg/mL
C/C(=N\NC(=O)Cc1nn(Cc2ccc(Br)cc2F)c(=O)c2ccccc12)c1ccc(Br)cc1 | - | - | Multidrug-resistant (MDR) | MIC | - | 2.79 µM
Nc1nc(-c2cccc3c2oc2ccccc23)c2ccn([C@@H]3O[C@H](CO)C(O)C3O)c2n1 | - | MTT | My 331/88 | MIC | - | >250 µM
CCOC(=O)c1c(-c2ccc(Cl)cc2)c([N+](=O)[O-])c2ccccn12 | - | agar | H37Rv | MIC | - | 9.1 µM
COc1cc(/C=N/NC(=O)Cc2nn(Cc3ccc(Br)cc3F)c(=O)c3ccccc23)ccc1O | - | - | Multidrug-resistant (MDR) | MIC | - | 3.05 µM
CCN1CC(=O)N(C)C1=S | - | BACTEC | H37Rv | MIC bound | - | ≤12.5 µg/mL
Cc1ccc(-c2c([N+](=O)[O-])c3c4ccccc4ccn3c2C#N)cc1 | - | agar | H37Rv | MIC | - | 9.6 µM
COc1ccc(C2CC(=O)c3cc(-c4c(OC)cc5c(c4OC)C(=O)CC(c4ccc(OC)cc4)O5)c(OC)cc3O2)cc1 | - | - | - | inhibition | 12.5 µg/mL | 2%
CNC(=O)SC1=NS(=O)(=O)c2ccc(Cl)cc2N1 | - | BACTEC | H37Rv | MIC bound | - | >6.25 µg/mL
O=[N+]([O-])c1ccc2nc(/C=C(\O)c3ccccc3)c(/C=C(\O)c3ccccc3)nc2c1 | - | - | - | inhibition | 6.25 µg/mL | 7%
O=C(Nc1nc(-c2ccccn2)cs1)C1=CC=C(Br)C1 | - | - | H37Rv | MIC100 | - | >32 µg/mL
N#Cc1ccc(Nc2nc(Oc3cccc4cccnc34)nc(N3CCN(C(c4ccccc4)c4ccc(Cl)cc4)CC3)n2)cc1C(F)(F)F | - | agar | H37Rv | MIC99 | - | 6.25 µg/mL
C[C@@H]1[C@H]2C[C@@H](C[C@H]1NCCN[C@H]1C[C@H]3CC[C@]1(C)C3(C)C)C2(C)C | - | - | - | MIC | - | 12.5 µM
O=C(CN1CCCCC1)NC(=O)N(/N=C\c1ccco1)c1ccccc1 | - | BACTEC | H37Rv | inhibition | 12.5 µg/mL | 0%
CC(C)(C)C/C(O)=C/c1nc2ccccc2nc1/C=C(\O)CC(C)(C)C | - | - | - | inhibition | 6.25 µg/mL | 7%
NNC(=O)c1ccncc1 | - | - | H37Rv | MIC | - | 2.51 µM
Cc1ccc(/C=C(\C(N)=S)c2nc3ncccc3n2C)c(C)c1 | - | - | 193 | MIC | - | 31.2 µg/mL
COc1cnc2ccc(=O)n(CCN3CCC(NCc4cc(Cl)c(Cl)cn4)CC3)c2c1 | - | resazurin | Beijing 1237 | MIC | - | 0.03 µg/mL
COc1ccc(CN2CCN(c3nc(Nc4ccc(C#N)c(C(F)(F)F)c4)nc(Oc4cccc5cccnc45)n3)CC2)c(OC)c1OC | - | agar | H37Rv | MIC99 | - | 12.5 µg/mL
OC[C@H]1O[C@@H](n2ccc3c(-c4ccccc4)nc(F)nc32)C(O)C1O | - | MTT | My 331/88 | MIC | - | >250 µM
CC(C)C1(Cl)CCC2C3(C)CCCC(C)(C(=O)O)C3CC(Cl)C2(Cl)C1Cl | - | BACTEC | H37Rv | inhibition | 6.25 µg/mL | 13%
CC(CNCCC(c1ccccc1)c1ccccc1)N[C@@H]1C[C@@H]2C[C@H]([C@H]1C)C2(C)C | - | - | - | MIC | - | 50 µM
CN(C)c1ccc(/C=N/NC(=O)Cc2nn(Cc3ccc(Br)cc3F)c(=O)c3ccccc23)cc1 | - | - | Multidrug-resistant (MDR) | MIC | - | 6.16 µM
C[C@@H]1[C@@H](NCCNCCc2ccc(Cl)cc2Cl)C[C@H]2C[C@@H]1C2(C)C | - | - | - | MIC | - | 50 µM
O=C(CSc1nnc(-c2ccncc2)n1Cc1ccccc1)c1ccccc1 | - | - | H37Rv | MIC | - | >6.25 µg/mL
CCOC(=O)c1c(-c2ccc(Cl)cc2)cc2c3ccccc3ccn12 | - | agar | H37Rv | MIC | - | 3.9 µM
CN1CCN(CCCN2c3ccccc3Sc3ccc(C(F)(F)F)cc32)CC1 | - | - | H37Rv | MBC | - | 40 µg/mL
O=C(NCCO)c1cccnc1 | - | BACTEC | H37Rv | inhibition | 12.5 µg/mL | 7%
COc1cc(OC)c(-c2c([N+](=O)[O-])c3ccccn3c2C#N)c(OC)c1 | - | agar | H37Rv | MIC | - | >85 µM
NNC(=O)c1ccc(C(=O)NN)nc1 | - | BACTEC | H37Rv | MIC | - | ≥12.5 µg/mL
COc1cnc2ccc(=O)n(CCN3CCC(NCc4cc5c(cn4)OCCO5)CC3)c2c1 | - | resazurin | ATCC 27294 | MIC | - | 0.29 µM
O=P(O)(O)Oc1c(O)c2ccccc2c2ccccc12 | - | resazurin | H37Rv | MIC | - | 3.13 µg/mL
O=[N+]([O-])c1cn2c(n1)OC[C@@H](OCc1ccc(OC(F)(F)F)cc1)C2 | - | - | H37Rv | MIC | - | 0.4–0.8 µM
CC(C(=O)NN)c1nc2ncccc2[nH]1 | - | - | H37Rv | MIC | - | 500 µg/mL
O=[N+]([O-])c1cccnc1Sc1nc2ccccc2[nH]1 | - | resazurin | H37Rv | inhibition | 6.25 µg/mL | -7%
CN(Cc1cc(Br)cc(Br)c1N)C1CCCCC1 | - | - | 10 isolates | MIC | - | 6.25–12.5 µg/mL
O=[N+]([O-])c1cn2c(n1)OC[C@@H](OCc1ccc(OCc3ccccc3)cc1)C2 | - | - | H37Rv-T2 (PA-824-resistant) | MIC | - | >100 µM
Oc1cc(O)c2c(c1)OC(c1ccc(O)c(O)c1)C(O)C2O | - | BACTEC | H37Rv | MIC bound | - | >12.5 µg/mL
OC[C@H]1O[C@@H](n2ccc3c(-c4cc5ccccc5o4)nc(F)nc32)C(O)C1O | - | MTT | My 331/88 | MIC | - | 62.5 µM
CC(C)N1CCN(c2ccc(OC[C@@H]3CO[C@@](Cn4cncn4)(c4ccc(Cl)cc4Cl)O3)cc2)CC1 | - | resazurin | H37Rv | MIC bound | - | >6.25 µg/mL
O/C(=C\c1nc2ccccc2nc1/C=C(\O)c1ccc(Cl)cc1)c1ccc(Cl)cc1 | - | - | - | inhibition | 6.25 µg/mL | 9%
Cc1ccc(-c2c([N+](=O)[O-])c3ccccn3c2C#N)cc1 | - | agar | H37Rv | MIC | - | 45.1 µM
CCCCCCCCCCCNCCNC1CCC1 | - | - | - | MIC | - | 50 µM
NNC(=O)c1ccncc1 | - | - | H37Rv | MIC | - | 0.428 µg/mL
O=C(Cc1nn(Cc2ccc(Br)cc2F)c(=O)c2ccccc12)N/N=C/c1ccc(Br)cc1 | - | - | Multidrug-resistant (MDR) | MIC | - | 0.72 µM
Cn1cccc2nc(CC(=O)NN)nc1-2 | - | - | H37Rv | MIC | - | 250 µg/mL
CC(C)N=c1cc2n(-c3ccc(Cl)cc3)c3ccccc3nc-2cc1Nc1ccc(Cl)cc1 | - | broth dilution / resazurin | MDR11 | MIC | - | 1 µg/mL
COc1ccc(OC)c(CCNCCNCCCN2CCCC2=O)c1 | - | - | - | MIC | - | 12.5 µM
Cn1cccc2nc(C/C(N)=N/O)nc1-2 | - | - | 109 | MIC | - | 125 µg/mL
CN1CCN(c2nc(Nc3ccc(C#N)c(C(F)(F)F)c3)nc(Oc3cccc4cccnc34)n2)CC1 | - | agar | H37Rv | MIC97 | - | 250 µg/mL
CCCCCCCC(=O)N/N=C(\CO)C1(O)Cc2c(O)c3c(c(O)c2C(OC2CC(N)C(O)C(C)O2)C1)C(=O)c1c(OC)cccc1C3=O | - | BACTEC | H37Rv | inhibition | 12.5 µg/mL | 4%
CC1COc2c(N3CCN(C)CC3)c(F)cc3c(=O)c(C(=O)O)cn1c23 | - | - | H37RV (DRUG-SUS) | MIC | - | 1 µg/mL
C=CCn1c(SCC(=O)c2ccccc2)nnc1-c1ccncc1 | - | - | H37Rv | MIC | - | >6.25 µg/mL
CCOC(=O)c1c(-c2ccc(C)cc2)cc2c3ccccc3ccn12 | - | agar | H37Rv | MIC | - | 16.7 µM
CC[C@@H](CO)NCCN[C@@H](CC)CO | - | - | H37Rv | MIC | - | 1.733 µg/mL
CCOC(=O)c1c(-c2ccc(C(C)C)cc2)cc2c3ccccc3ccn12 | - | agar | H37Rv | MIC | - | 7.8 µM
Cc1nc(-c2ccsc2)c2ccn([C@@H]3O[C@H](CO)C(O)C3O)c2n1 | - | MTT | My 331/88 | MIC | - | >250 µM
CCn1cc(C(=O)O)c(=O)c2cc(F)c(N3CCN(C)CC3)cc21 | pH 6.8 | - | - | inhibition | 10 µg/mL | 100%
Cn1c(=O)c2c(ncn2Cc2ccc(O)c([N+](=O)[O-])c2)n(C)c1=O | - | BACTEC | H37Rv | MIC | - | ≥12.5 µg/mL
Nc1ccc(S(=O)(=O)c2ccc(N)cc2)cc1 | - | - | H37Rv | MBC | - | >160 µg/mL
COc1cc(C(C)(C)C)c2oc3c(c2c1)C(=O)C(C(C)(C)C)=CC3(OC)OC | - | BACTEC | H37Rv | MIC bound | - | >12.5 µg/mL
OC[C@H]1O[C@@H](n2ccc3c(-c4ccsc4)nc(F)nc32)C(O)C1O | - | MTT | My 331/88 | MIC | - | 125 µM
CC(=O)NNC(=S)N/C=C(/C(=O)c1ccccc1)c1ccccc1 | - | BACTEC | H37Rv | inhibition | 12.5 µg/mL | 27%
CCN1CCN(c2nc(Nc3ccc(C#N)c(C(F)(F)F)c3)nc(Oc3cccc4cccnc34)n2)CC1 | - | BACTEC | H37Rv | MIC | - | >6.25 µg/mL
COc1ccc2c(c1)O[C@H]1c3ccc(O)cc3OC[C@@H]21 | - | BACTEC | H37Rv | inhibition | 12.5 µg/mL | 26%
CO[C@H]1/C=C/O[C@@]2(C)Oc3c(C)c(O)c4c(O)c(c(/C=N/N5CCN(C)CC5)c(O)c4c3C2=O)NC(=O)/C(C)=C\C=C\[C@H](C)[C@H](O)[C@@H](C)[C@@H](O)[C@@H](C)[C@H](OC(C)=O)[C@@H]1C | - | - | Multidrug-resistant (MDR) | MIC | - | 3.79 µM
C=CCn1cc(C(=O)NC(=O)NCCCCCOC(=O)CCCCCCCCCCC(=O)OCCCCCNC(=O)NC(=O)c2cn(CC=C)c(=O)n(C)c2=O)c(=O)n(C)c1=O | - | BACTEC | H37Rv | inhibition | 12.5 µg/mL | 8%
CC(CNCCNCCC(c1ccccc1)c1ccccc1)c1ccccc1 | - | - | - | MIC | - | 50 µM

4 of the rows above, restated:

Nc1nc(-c2ccoc2)c2ccn([C@@H]3O[C@H](CO)C(O)C3O)c2n1 ; method: MTT ; strain: My 331/88 ; measure: MIC ; result: >250 µM
CCCCCCCC(=O)N/N=C(\CO)C1(O)Cc2c(O)c3c(c(O)c2C(OC2CC(N)C(O)C(C)O2)C1)C(=O)c1c(OC)cccc1C3=O ; method: BACTEC ; strain: H37Rv ; measure: inhibition ; tested at: 12.5 µg/mL ; result: 4%
Cc1ccc(/C=C(\C(N)=S)c2nc3ncccc3n2C)c(C)c1 ; strain: 193 ; measure: MIC ; result: 31.2 µg/mL
Cn1cccc2nc(CC(=O)NN)nc1-2 ; strain: H37Rv ; measure: MIC ; result: 250 µg/mL